The target in data set [1] is T1, GltR (Pseudomonas aeruginosa PAO1) (UniProt G3XCY6).
T1 sequence (looked up): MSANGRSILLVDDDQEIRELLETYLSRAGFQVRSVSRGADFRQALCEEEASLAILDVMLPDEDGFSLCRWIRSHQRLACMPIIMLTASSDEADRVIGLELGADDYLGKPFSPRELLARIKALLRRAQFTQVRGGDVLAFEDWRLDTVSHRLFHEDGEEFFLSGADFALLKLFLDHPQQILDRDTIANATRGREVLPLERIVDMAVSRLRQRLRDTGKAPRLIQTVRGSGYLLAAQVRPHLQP
As to the kind of experiment: DNase I footprinting. To be noted: 2, 4, 10 uM GltR, one operator site; recombinant protein; residues 1-242; protein details: C-terminal His6 (pET28a); label: 32P 5' end; probe letters rebuilt from the primers and the genome.

Data set [2] deals with GltR D56A (Pseudomonas aeruginosa PAO1) (UniProt G3XCY6). As to the kind of experiment: EMSA. The conditions noted are these: GtrS-Cter + 0.2 mM ATP (no dissociation); EMSA: 2 nM 32P-DNA, 50 mM Tris-HCl pH 7.5, 10 mM NaCl, 0.1 mM EDTA, 1 mM DTT, 5% glycerol, 20 ug/ml poly(dI-dC), 200 ug/ml BSA, 1 h; recombinant protein; residues 1-242; protein details: His6 (pET28a); label: 32P 5' end; probe letters rebuilt from the primers and the genome.

The target in data set [3] is T1, GltR (Pseudomonas aeruginosa PAO1). In words: EMSA. To be noted: EMSA: 2 nM 32P-DNA, 50 mM Tris-HCl pH 7.5, 10 mM NaCl, 0.1 mM EDTA, 1 mM DTT, 5% glycerol, 20 ug/ml poly(dI-dC), 200 ug/ml BSA, 1 h, recombinant protein, residues 1-242, protein details: C-terminal His6 (pET28a), label: 32P 5' end, probe letters rebuilt from the primers and the genome.
The next data set concerns the target T2, PtxR (UniProt P72131).
T2 sequence (looked up, limits assumed): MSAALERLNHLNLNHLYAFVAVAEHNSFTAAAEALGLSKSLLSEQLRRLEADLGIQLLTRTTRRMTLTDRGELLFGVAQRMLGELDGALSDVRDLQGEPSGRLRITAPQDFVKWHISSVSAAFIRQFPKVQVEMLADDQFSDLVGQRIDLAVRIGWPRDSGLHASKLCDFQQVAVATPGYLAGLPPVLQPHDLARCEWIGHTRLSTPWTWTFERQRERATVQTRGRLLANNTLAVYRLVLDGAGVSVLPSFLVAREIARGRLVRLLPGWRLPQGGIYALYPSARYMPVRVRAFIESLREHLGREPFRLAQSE
As to the kind of experiment: EMSA. To be noted: with constant GltR, binding exclusive, no ternary complex; EMSA: 2 nM 32P-DNA, 50 mM Tris-HCl pH 7.5, 10 mM NaCl, 0.1 mM EDTA, 1 mM DTT, 5% glycerol, 20 ug/ml poly(dI-dC), 200 ug/ml BSA, 1 h; recombinant protein; label: 32P 5' end; probe letters rebuilt from the primers and the genome.

For part of these data: Protein sequences can lack the tags named with them. For part of these data: For at least one entry, the source does not settle the construct or the ends of the probe.

Consider 2 sequences from paper PMC4081096, “GtrS and GltR form a two-component system: the central role of 2-ketogluconate in the expression of exotoxin A and glucose catabolic enzymes in Pseudomonas aeruginosa” (Nucleic Acids Research, 2014).

Take “AGATCTCGGGTCAGCCTGCGCTTGCCACGCCTGGGGCTGGAGTGATGGGCTGGCCTGTCGGGCCCTTGAACGAGGCGGGCAGGCACGAGGTTCTCCCGTGTTCTGCGGCAGCCGCAGACAGAGGCGGAGCGGGCGCTATGGCAGTGTTTGCGCGGGCATCGATTGCTCGGGCTGAAGTTTCGTCGGCAGAAGGTTCTCGGGCCGTACATCGTCGATTTCGTCTGTCATGAGCGGATGCTGGTGATCGAACTGGATGGTGGGCAGCATGTGGGTTCGCCGGCCGATGCCTGGCTGGAGAGCCGGGGTCCAGGGTACTGCGTTTCTGGAACGACAAGGTGCTGCCGCGCAGGGAGGTGCTGCTGGAGGTCATTCTCGTGTTGTAGGAGGTTTCTGTCGCGAAACCGCCTTGCCGAGTTCAAGTCCAGATTTTCCTGCTCTGCCTCAATCCCAATGTAACCGCTCCGTGACAAACCCGGATCGCTTCGTTACCCGCGACGCGGAACGCTTGAATAGACTCGGAGCATTGCAAGCGCAGACTTGCTCCGAATAACAAGAAGAAGGTTTTCCTCATGAATGCGATCCGTCGCCTCTCTGCCGTCATCTGTCTCTGCAG (double strand) [PoprB promoter fragment]”: the binding result is “binds” in data set [1]; “binds” in data set [2]; “binds” in data set [3] (GtrS-Cter (269-465), no ATP). Moreover, the half-maximal binding in data set [3] is 1000 nM.
For the sequence “CTGCAGACTCACCCTTGAGGCCCGGCGCTCCACCGGCGAATGCGGCTGTACCTCGGCGCTGGTGCGATATCGGCTGCTGGCCAGGGGCGCCAGCGCCGACAGCCTCGTGCTTCAAGAGGGGCTGCTCGATAGTCGCCAGGACACGCCGCGCACGCTGACCCTGGCGGCGGACGCCGGCTTGGCGAGCGGCCGCGAACTGGTCGTCACCCTGGGTTGTCAGGCGCCTGACTGACAGGCCGGGCTGCCACCACCAGGCCGAGATGGACGCCCTGCATGTATCCTCCGATCGGCAAGCCTCCCGTTCGCACATTCACCACTCTGCAATCCAGTTCATAAATCCCATAAAAGCTCTCTTCCGCTCCCCGCCAGCCTCCCCGCAACCCGCACCCTAGACGCCCCGCCGCTCTCCGCCGGCTCGCCCGACAAGAAAAACCAACCGCTCGATCAGCCTCATCCTTCACCCATCAAAGGAGCCATCGCGATGCACCTGACACCCCATTGAGATCT (double strand) [PtoxA promoter fragment]”, the binding result with PtxR was “binds”. The half-maximal binding in data set [3] worked out at 1000 nM.
